Data published in article PMC9518701.

Chains of the proteins cited; added tags and fusions are not shown. Residues count along the entry.
UniProt P55899, 24-297, chain 1 of 2: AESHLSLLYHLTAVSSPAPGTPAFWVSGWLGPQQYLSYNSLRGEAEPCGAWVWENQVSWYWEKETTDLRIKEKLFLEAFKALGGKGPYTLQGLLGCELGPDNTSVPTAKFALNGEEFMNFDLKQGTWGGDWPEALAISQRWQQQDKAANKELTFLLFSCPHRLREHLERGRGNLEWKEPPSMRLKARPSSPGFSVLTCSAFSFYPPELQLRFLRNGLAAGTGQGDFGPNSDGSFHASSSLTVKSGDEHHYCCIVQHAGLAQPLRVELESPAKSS

Columns and labels:
FcγRIIb = assay: SPR
FcγRI = assay: SPR
FcγRIIa (R131) = assay: SPR
FcγRIIIa (V158) = assay: SPR
FcγRIIIa (F158) = assay: SPR
FcγRIIa (H131) = assay: SPR
[1] = molecular target: human neonatal Fc receptor (FcRn) (human) (UniProt P55899); assay: SPR; pH 6.0

## amubarvimab (BRII-196)
FcγRIIb
  Kd: 34 µM
FcγRI
  Kd: 0.0027 µM
FcγRIIa (R131)
  Kd: 19.9 µM
FcγRIIIa (V158)
  Kd: 0.843 µM
FcγRIIIa (F158)
  Kd: 5.29 µM
FcγRIIa (H131)
  Kd: 12.4 µM
[1]
  Kd: 0.0004 µM
